# From patent US10703802B2 (priority 2013, dated 2020)
# Assays:
# [1] = system: CHO K1 cell line expressing the HA of influenza H1N1 (A/California/04/2009)
# [2] = system: CHO K1 cell line expressing the HA of influenza H1N1 (A/California/04/2009); remark: listed apart in the source
substance,measurement,setting,value
"CT-P6: negative control, anti-Her2 antibody",cytotoxicity (CDC),[1],no cytotoxicity
same,cytotoxicity (ADCC),[2],no cytotoxicity
